Test results: patent US7846435 (TEIJIN, dated 2010)

B1: humanized VTm1.1 antibody (HuVTm1.1) (antibody, V domains shown)
VH: EVQLVESGGGLVQPGGSLRLSCAASGFTFSSYGMSWVRQAPGKGLEWVATISTGGSYTYYPDSVKGRFTISRDNSKNTLYLQMNSLRAEDTAVYYCARRGDAWGNLDYWGQGTLVTVSS
VL: EIVLTQSPATLSVSPGERATLSCRASQTISNNLHWYQQKPGQAPRLLIKSASQSISGIPARFSGSGSGTDFTLTISSLESEDFAVYYCQQSYSWPLTFGQGTKVEIK
B2: mouse VTm1.1 antibody (MuVTm1.1) (antibody, V domains shown)
VH: EVQLVESGGGLVKPGGPLKLSCAASGFTFSSYGMSWVRQTPEKRLEWVATISTGGSYTYYPDSVKGRFTISRDNAKNALYLQMSSLRSEDTAIYYCARRGDAWGNLDYWGQGTSVTVSS
VL: DVVLTQSPATLSVTPGDSVSLSCRASQTISNNLHWYQHKSHESPRLLIKSASQSISGIPSRFSGSGSGTDFTLSINSVETEDFGMYFCQQSYSWPLTFGAGTKLELK

Columns and labels:
Test in all cases: cell-based or functional assay
[1] = biological target: VT2vh of E. coli 0157 V50 (E. coli)
[2] = biological target: VT2v of E. coli 0157 V601 (E. coli)
[3] = biological target: VT2vh of E. coli 0157 V354 (E. coli)
VT2vh = VT2vh (Escherichia coli)

| Binder | ED50 (µg/ml), in vitro neutralizing assay [1] [µg/mL] | ED50 (µg/ml), in vitro neutralizing assay [2] [µg/mL] | ED50 (µg/ml), in vitro neutralizing assay [3] [µg/mL] | EC50 (read off the curve) (VT2vh) [µg/mL] |
| --- | --- | --- | --- | --- |
| B1 | 0.36 | 0.32 | 0.39 |  |
| B2 |  |  |  | ~0.2 |
